Fitness of HIV-1 1203 Vif variants in SupT1-APOBEC3G cells

The measurements come from Langley et al. 2025, preprint (doi:10.1101/2025.10.20.683452).

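A pool of vif mutants was passaged twice, 72 h each, on SupT1 cells that express APOBEC3G. Frequencies after the second round, in three biological replicates, were compared with the merged pool after the first round. Changes do not touch integrase, since the pol overlap was removed.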

Scanned stretch, residues 12 to 115 of Vif from HIV-1 1203 (a subtype B primary isolate):
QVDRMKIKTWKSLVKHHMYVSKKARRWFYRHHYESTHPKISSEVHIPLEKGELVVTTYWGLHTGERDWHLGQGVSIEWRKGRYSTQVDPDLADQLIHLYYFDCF

The score is log2 enrichment against the wild-type codon: higher is better tolerated, lower is depleted. Each entry names the wild-type residue, its position and the residue put in its place. The median of three replicates is given, with the replicates in brackets. Input reads are the counts in the merged round-one pool, before selection. The scan is noisy: the rank correlation of replicates is about 0.4 to 0.65, and variants with under about 50 input reads tend to read too high. Some changes are missing from the data or left out. Positive scores are uncertain; some enriched variants did not exclude APOBEC3G in a separate test.

mutation	input reads	median log2 enrichment
W89C	909	-1.58 (-1.58 0.75 -2.08)
W89E	1217	-2.07 (-2.07 -2.32 0.35)
W89G	103	-2.30 (-2.50 -2.30 2.55)
W89I	796	-2.42 (-2.42 -2.43 -1.26)
W89P	164	-2.07 (-2.07 -2.31 -1.69)
W89Q	374	-3.05 (-3.47 -3.05 -1.82)
W89S	241	-2.42 (-3.73 -2.42 -2.04)
W89V	315	-2.53 (-2.53 1.50 -4.01)
R90A	342	-2.74 (-2.38 -2.74 -3.00)
R90F	444	-2.74 (-1.17 -2.81 -2.74)
R90G	340	-1.73 (-1.73 2.56 -2.20)
R90K	50	-0.36 (0.13 -0.36 -2.11)
R90L	131	-2.27 (-5.64 -2.27 -1.37)
R90Q	256	-2.22 (-2.22 -2.50 -1.95)
R90T	207	-2.39 (-2.39 -2.64 1.26)
R90W	131	0.46 (0.46 2.09 -0.22)
R90Y	105	-4.76 (-5.33 -2.32 -4.76)
K91A	777	-2.16 (-2.49 0.32 -2.16)
K91E	209	-2.68 (-0.71 -2.68 -3.44)
K91L	179	0.13 (0.13 -2.46 2.36)
K91N	4086	-0.93 (-0.93 -0.27 -1.89)
K91Q	101	-3.13 (-1.58 -3.51 -3.13)
K91R	16	-0.89 (-1.07 -0.89 0.23)
G92D	195	-2.99 (-3.20 -2.12 -2.99)
G92E	543	-1.69 (-1.69 -2.33 -1.05)
G92F	191	-2.60 (-1.81 -3.01 -2.60)
G92K	16342	-2.64 (-2.92 -2.64 -2.46)
G92L	16	-0.65 (-2.80 0.17 -0.65)
G92Q	25	-2.86 (-0.62 -3.27 -2.86)
G92V	108	0.04 (0.04 -1.27 1.65)
G92W	359	-1.47 (-2.04 -1.47 -0.27)
Y94A	129	-2.24 (-2.45 -1.96 -2.24)
Y94D	818	-3.22 (-3.32 -3.22 -2.58)
Y94F	353	-2.54 (-2.54 2.29 -2.59)
Y94L	243	-2.28 (-2.28 -2.25 -2.50)
Y94S	115	-1.99 (-1.99 -2.09 -1.43)
S95A	235	-2.04 (-2.04 -1.78 -2.43)
S95C	22	-0.11 (-0.72 -0.11 1.58)
S95D	75	3.23 (3.23 -2.34 3.66)
S95G	18	2.30 (6.07 1.06 2.30)
S95I	185	-1.44 (-1.44 -2.79 1.84)
S95N	349	-1.92 (-3.09 -1.92 -0.68)
S95Q	539	0.30 (-1.84 0.39 0.30)
S95R	84	0.63 (4.74 -0.44 0.63)
S95T	490	-1.12 (-1.04 -2.01 -1.12)
S95W	406	-2.29 (-0.65 -3.64 -2.29)
T96H	243	-2.42 (-2.42 -2.43 -0.82)
T96I	82	-1.49 (-1.49 -1.60 1.17)
T96K	95	-3.40 (-3.58 -3.40 -1.79)
T96R	21	-0.69 (-0.69 -0.51 -2.45)
Q97D	42	3.20 (3.20 5.20 -0.64)
Q97G	384	-2.73 (-3.72 -2.73 -2.72)
Q97H	394	-2.06 (-2.82 -2.06 -2.02)
Q97K	243	-2.80 (-3.06 -2.62 -2.80)
Q97L	103	-3.50 (-3.70 -3.50 -2.41)
Q97N	227	-2.70 (-2.72 -1.70 -2.70)
Q97R	21	0.68 (0.68 5.65 -0.14)
Q97V	360	-2.28 (-3.00 1.54 -2.28)
V98A	214	-3.38 (-2.89 -3.38 -4.21)
V98D	147	-2.93 (-1.73 -3.32 -2.93)
V98F	49	-2.48 (-4.24 -2.48 -2.09)
V98G	25	-3.11 (-3.28 -3.11 -2.72)
V98K	314	-2.65 (-3.74 -2.65 -2.44)
V98Q	222	-2.71 (-2.71 -2.78 -1.20)
V98W	2056	-2.43 (-2.60 -2.04 -2.43)
D99E	34	1.07 (3.39 -0.14 1.07)
D99G	8301	-2.68 (-2.68 -2.90 -1.44)
D99H	42	-0.68 (-0.17 -1.09 -0.68)
D99K	18	0.11 (-2.87 0.11 5.37)
D99N	283	-2.52 (-1.53 -2.55 -2.52)
D99P	21	2.02 (1.30 5.83 2.02)
D99S	62	-4.46 (-4.63 -4.46 -1.72)
D99Y	76	-0.84 (-1.75 -0.84 0.71)
P100A	26	-0.14 (-0.14 -0.82 0.07)
P100G	20	0.93 (-1.35 0.93 4.89)
P100H	189	-1.46 (-0.72 -1.46 -2.77)
P100L	31	-1.40 (-3.56 -0.22 -1.40)
P100S	111	-1.68 (-1.68 -0.09 -2.01)
P100T	16	4.25 (4.25 -0.87 4.39)
D101C	578	-2.94 (-2.44 -2.94 -3.63)
D101E	32	-0.21 (-0.07 -0.86 -0.21)
D101F	277	-2.23 (-1.94 -3.11 -2.23)
D101G	151	-3.28 (-3.87 -0.88 -3.28)
D101H	20	0.94 (0.60 0.94 2.49)
D101K	696	-0.24 (-0.24 -1.99 0.16)
D101N	151	1.25 (1.25 1.23 1.29)
D101P	149	-2.41 (-3.86 -1.93 -2.41)
D101Q	373	1.10 (1.10 1.57 -1.78)
D101S	21	-2.64 (-2.64 -2.59 -2.79)
D101T	274	-2.01 (-2.23 -2.01 -1.10)
D101V	139	-3.76 (-3.76 -2.12 -5.48)
D101Y	153	-1.57 (-1.57 3.31 -1.71)
L102A	156	-2.51 (-2.70 -2.51 -1.86)
L102D	216	-3.17 (-3.17 -2.98 -3.46)
L102F	190	-1.21 (-1.63 2.71 -1.21)
L102I	75	1.11 (1.11 2.95 -2.68)
L102Q	26	0.05 (4.65 -0.31 0.05)
L102R	40	2.46 (2.46 5.38 0.33)
L102T	31	-3.37 (-3.56 -3.37 -0.68)

A selection of 12 entries from above:

mutation,input reads,median log2 enrichment
D101F,277,-2.23 (-1.94 -3.11 -2.23)
D99N,283,-2.52 (-1.53 -2.55 -2.52)
W89G,103,-2.30 (-2.50 -2.30 2.55)
D99E,34,1.07 (3.39 -0.14 1.07)
W89Q,374,-3.05 (-3.47 -3.05 -1.82)
V98A,214,-3.38 (-2.89 -3.38 -4.21)
V98G,25,-3.11 (-3.28 -3.11 -2.72)
G92E,543,-1.69 (-1.69 -2.33 -1.05)
V98Q,222,-2.71 (-2.71 -2.78 -1.20)
V98D,147,-2.93 (-1.73 -3.32 -2.93)
D99H,42,-0.68 (-0.17 -1.09 -0.68)
L102F,190,-1.21 (-1.63 2.71 -1.21)